Pooled drug test results. Numbers come from NIAID ChemDB, via PubChem.

All rows: whole-cell or culture tests; species: Rhinovirus; endpoint: EC50

An empty or dashed field is not shown. ECn is the concentration giving n% inhibition of infection, replication or growth. Conditions beyond the fields shown may differ between rows.

compound	strain	cell line	method	value
Cc1nc(-c2cc(C)c(OCCCc3cc(C(F)(F)F)no3)c(C)c2)no1	Serotype 15	HeLa	cytopathic effect	0.232 µg/mL
Cc1cc(CCCOc2c(C)cc(-c3coc(C)n3)cc2C)on1	Serotype 14	-	plaque count	0.221 µg/mL
CNC(=O)/C=C(\c1ccccc1)c1ccc2nc(N)c(S(=O)(=O)C(C)C)n2c1	TYPE 14	H-HELA	plaque count	0.64 µg/mL
CS(=O)(=O)c1ccc(Oc2ccc(Cl)c(Cl)c2)nc1	29	-	cytopathic effect	4.1 µM
Fc1cccc(Cn2cnc3c(Nc4cccc(F)c4)nc(C(F)(F)F)nc32)c1	Serotype 18	M-HELA	plaque count	4.3 µM
CCOC(=O)/C=C/[C@H](C[C@@H]1CCNC1=O)NC(=O)[C@H](Cc1ccc(F)cc1)NC(=O)[C@@H](NC(=O)c1cc(C)on1)C(C)C	Serotype 1A	-	-	<0.14 µM
CN(C)c1ncnc2c1ncn2Cc1cccc(NC(=O)C(Cc2ccccc2)NC(=O)OCc2ccccc2)c1	Serotype 1B	M-HELA	plaque count	>50 µM
Cc1cccc(CON2CNc3c(ncn3[C@@H]3O[C@H](CO)[C@@H](O)[C@H]3O)C2=N)c1	Type 1A/strain 2060	KB	cytopathic effect	100 µg/mL
Cc1cc(CCCCCOc2c(Cl)cc(C3=NCCO3)cc2Cl)on1	TYPE 6	HeLa	plaque count	0.13 µg/mL
CS(=O)(=O)c1ccc(Cc2ccc(Cl)c(Cl)c2)nc1	TYPE 74	HeLa	cytopathic effect	5 µg/mL
N=C1c2ncn([C@@H]3O[C@H](CO)[C@@H](O)[C@H]3O)c2NCN1OCc1ccc(F)cc1	Type 1A/strain 2060	KB	cytopathic effect	100 µg/mL
CCOC(=O)/C=C/[C@H](CCC(N)=O)NC(=O)[C@H](Cc1ccccc1)NC(=O)[C@H](CC(C)C)NC(=O)OCc1ccccc1	TYPE 14	H1-HELA	-	0.54 µM
CCCn1nc2ccc(OCCC3CCN(c4ccc(C)nn4)CC3)cc2n1	Serotype 14	MRC-5	cytopathic effect	0.139 µg/mL
CN(C)c1nc(C(F)(F)F)nc2c1ncn2Cc1cccc(F)c1	Serotype 30	M-HELA	plaque count	>8 µM
Cn1c2ccccc2c2nnc(NCCCCCO)nc21	HGP	WI-38	plaque count	45 µg/mL
CO/N=C/c1ccc(OCCC2CCN(c3ccc(C)nn3)CC2)cc1	TYPE 1A	KB	cytopathic effect / visual reading	<0.0032 µg/mL
CCS(=O)(=O)c1ccc(NCc2ccc(Cl)cc2)nc1C#N	TYPE 2	HeLa	cytopathic effect	1.6 µg/mL
COCCCNc1nnc2c3ccccc3n(C)c2n1	1059	WI-38	plaque count	20 µg/mL
CN(C)c1ncnc2c1ncn2Cc1ccc(NC(=O)C(N)Cc2ccccc2)cc1	Serotype 1B	M-HELA	plaque count	>50 µM
CCOc1nc2ccc(OCCCCCc3cc(C)no3)cc2o1	Serotype 14	MRC-5	cytopathic effect	0.118 µg/mL
Brc1ccc2c(c1)C=C(c1ccccc1)CO2	Serotype 1B	M-HELA	cytopathic effect	1.92 µM
Cn1c(O)c(N=NC(N)=S)c2ccccc21	1059	WI-38	plaque count	11 µg/mL
COc1ncnc2c1ncn2[C@@H]1O[C@H](CO)[C@@H](O)[C@@H]1O	TYPE 1B	-	cytopathic effect	>100 µM
CS(=O)(=O)c1ccc(Cc2ccc(F)cc2)nc1	TYPE 1A	HeLa	cytopathic effect	2.5 µg/mL
CCC(CO)Nc1nnc2c3ccccc3n(C)c2n1	33342	WI-38	plaque count	4 µg/mL
Cc1nc(-c2cc(C)c(OCCCc3cc(C4CC4)no3)c(C)c2)no1	Serotype 41	HeLa	cytopathic effect	0.142 µg/mL
CS(=O)(=O)c1ccc(Cc2ccc(N)cc2)nc1	TYPE 64	HeLa	cytopathic effect	>10 µg/mL
Clc1ccc2c(c1)C=C(c1ccc(Br)cc1)CO2	Serotype 1B	M-HELA	cytopathic effect	2.49 µM
Cc1ccc(N2CCC(CCOc3ccc4nc(C)oc4c3)CC2)nn1	Serotype 2	MRC-5	cytopathic effect	>0.5 µg/mL
CN(C)c1ncnc2c1ncn2Cc1ccc(N)cc1	Serotype 1B	M-HELA	plaque count	>50 µM
Brc1ccc(C2=Cc3ccccc3OC2)cc1	Serotype 1B	M-HELA	plaque count	3.846 µM
CN(C)c1ncnc2c1ncn2Cc1ccccc1NC(=O)C(N)Cc1ccccc1	Serotype 1B	M-HELA	plaque count	>50 µM
NSc1ncnc2c1ncn2[C@H]1C[C@H](O)[C@@H](CO)O1	TYPE 1A	-	cytopathic effect	>320 µM
CN(C)c1ccc(Cn2cnc3c(N(C)C)nc(C(F)(F)F)nc32)cc1	Serotype 1B	M-HELA	plaque count	0.29 µM
CCO/N=C/c1cc(C)c(OCCCc2cc(C)no2)c(C)c1	TYPE 2	MRC-5	cytopathic effect / visual reading	<0.05 µg/mL
CCOc1cc(CCCOc2c(C)cc(-c3noc(C)n3)cc2C)on1	Serotype 2	HeLa	cytopathic effect	0.005 µg/mL
CC(=O)Nc1cccc(Nc2nc(Cl)nc3c2ncn3Cc2ccccc2)c1	Serotype 5	-	plaque count	3.6 µM
CCOc1nc2ccc(OCCC3CCN(c4nnc(C)c(C)n4)CC3)cc2o1	Serotype 2	MRC-5	cytopathic effect	>0.25 µg/mL
CSc1nsc(-c2ccc(OS(=O)(=O)c3ccc(C)cc3)cc2)c1C#N	Serotype 14 (group A)	HELA-OHIO	cytopathic effect	>25 µM
CN(C)c1ncnc2c1ncn2Cc1ccc(NC(=O)C(Cc2ccccc2)NC(=O)OCc2ccccc2)cc1	Serotype 1B	M-HELA	plaque count	>50 µM
CCCCCCCCCCCCCCOc1ccc(C(C)=O)o1	TYPE 39	HFF	plaque count	<0.25 µg/mL
Cc1nc(N)c2ncn([C@@H]3O[C@H](CO)[C@@H](O)[C@H]3O)c2n1	Type 1A/strain 2060	KB	cytopathic effect	100 µg/mL
CCc1nc2ccc(OCCC3CCN(c4ccc(C)nn4)CC3)cc2o1	Serotype 2	MRC-5	cytopathic effect	0.144 µg/mL
CNC(=O)/C=C(\c1ccccc1)c1ccc2nc(N)c(-c3ccc(F)cc3C(F)(F)F)n2c1	TYPE 14	H-HELA	plaque count	0.44 µg/mL
Nc1ccn([C@@H]2C[C@H](CO)[C@@H](O)[C@H]2O)c(=O)n1	TYPE 1A	WI-38	cytopathic effect	>100 µg/mL
NCC(=O)Nc1ccc(Cn2cnc3c(N)ncnc32)cc1	Serotype 1B	M-HELA	plaque count	>50 µM
Cn1cnc2c(ncn2[C@@H]2O[C@H](CO)[C@@H](O)[C@H]2O)c1=N	Type 1A/strain 2060	KB	cytopathic effect	100 µg/mL
CCOC(=O)c1ccc(OCCC2CCN(c3ccc(C)nn3)CC2)cc1	Serotype 10	-	-	<0.06 µM
CN(C)c1nc(Cl)nc2c1ncn2Cc1ccc(Cl)cc1	Serotype 14	M-HELA	plaque count	>5 µM
CC(C)Oc1ccc(Cn2cnc3c(N(C)C)nc(C(F)(F)F)nc32)cc1	Serotype 15	M-HELA	plaque count	>8 µM
CCOc1noc2cc(OCCCCCc3cc(C)no3)ccc12	Serotype 14	MRC-5	cytopathic effect	0.012 µg/mL
Cc1ccccc1Cn1cnc2c(N(C)C)nc(C(F)(F)F)nc21	Serotype 31	M-HELA	plaque count	>8 µM
Clc1ccc(N2CCC(CCOc3ccc(/C=N/OCc4ccccc4)cc3)CC2)nn1	TYPE 1A	KB	cytopathic effect / visual reading	>1 µg/mL
Clc1ccc(C2=Cc3ccccc3OC2)cc1	Serotype 1B	M-HELA	plaque count	1.031 µM
Nc1ncnc2c1ncn2[C@@H]1C[C@H](NC=O)[C@@H](O)[C@H]1O	TYPE 2	HFF	-	>100 µg/mL
Cc1ccc(Cn2cnc3c(N(C)C)nc(C(F)(F)F)nc32)cc1C	Serotype 3	M-HELA	plaque count	>8 µM
CNC(=O)/C=C(\c1ccccc1)c1ccc2nc(N)c(SC(C)C)n2c1	TYPE 14	H-HELA	plaque count	0.17 µg/mL
N=C(N)c1ncn([C@@H]2O[C@H](CO)[C@@H](O)[C@H]2O)n1	-	-	-	>100 µM
CCOC(=O)c1ccc(OCCC2CCN(c3ccc(C)nn3)CC2)cc1	Serotype 42 (group A)	HELA-OHIO	cytopathic effect	>19 µM
CCCc1nc2ccc(OCCC3CCN(c4ccc(C)nn4)CC3)cc2o1	Serotype 2	MRC-5	cytopathic effect	0.075 µg/mL
Cn1c2ccccc2c2nnc(NCCC(C)(C)O)nc21	HGP	WI-38	plaque count	50 µg/mL
NS(=O)(=O)c1ncnc2c1ncn2[C@H]1C[C@H](O)[C@@H](CO)O1	TYPE 1A	-	cytopathic effect	>320 µM
Nc1ncnc2c1ncn2Cc1cccc(NC(=O)C(N)Cc2ccccc2)c1	Serotype 1B	M-HELA	plaque count	>50 µM
CCCn1c2ccccc2c2nnc(SC)nc21	HGP	WI-38	plaque count	20 µg/mL
NS(=O)c1ncnc2c1ncn2[C@H]1C[C@H](O)[C@@H](CO)O1	TYPE 1A	-	cytopathic effect	>320 µM
CN(C)c1nc(C(F)(F)F)nc2c1ncn2Cc1ccc(Cl)c(NC=O)c1	TYPE 1B	M-HELA	plaque count	0.56 µM
O=C1CC(CO)=NN1c1ccccc1	Serotype 13	WI-38	cytopathic effect	1.8 µM
CCOC(=O)c1ccc(OCCC2CCN(c3ccc(C)nn3)CC2)cc1	FO 1-3772 (ICAM-1 receptor group 52)	KB	neutral red	0.054 µM
N=c1c2ncn([C@H]3C[C@H](O)[C@@H](CO)O3)c2ncn1O	Type 1A/strain 2060	KB	cytopathic effect	10 µg/mL
CCOC(=O)/C=C/[C@H](C[C@@H]1CCNC1=O)NC(=O)[C@H](Cc1ccc(F)cc1)NC(=O)[C@@H](NC(=O)c1cc(C)on1)C(C)(C)C	Serotype 1A	H1-HELA	XTT	0.03 µM
Cc1ccc(Cn2cnc3c(N(C)C)nc(C(F)(F)F)nc32)c(C)c1	TYPE 1B	M-HELA	plaque count	0.11 µM
CCCOc1nc2cc(OCCC3CCN(c4ccc(C)nn4)CC3)ccc2s1	Serotype 14	MRC-5	cytopathic effect	0.041 µg/mL